Pooled drug test results. Numbers come from NIAID ChemDB, via PubChem.

Common to all: tests on isolated targets; organism: HIV-1; target: Reverse transcriptase

a–b is a range or a potency band. Lines come from different laboratories, so protocols vary. Blank or dashed fields: not listed here. Fold resistance: result on the changed form divided by that on wild type. ICn is the concentration giving n% inhibition. Percent inhibition refers to the dose given; in toxicity tests it is the harm to the cells.

SMILES,measure,dose,mutations,strain or isolate,method,result
CC(C)(C#Cc1ccc(NC(=O)CSc2nnc(C(F)(F)F)n2-c2ccc(C3CC3)cc2Cl)c(Cl)c1)C(=O)O,IC50,,RT-K103 Y181C,,PicoGreen / fluorescence,<1 µM
Cc1nnc2c3ccccc3c(N3CCC4CCCCC4C3)nn12,IC90,,,IIIB,RT activity / fluorescence,31 µM
CC(C)(C#Cc1ccc(NC(=O)CSc2nnnn2-c2ccc(C3CC3)cc2Cl)c(Cl)c1)NC(=O)c1ccc[n+]([O-])c1,IC50,,RT-K103 Y181C,,PicoGreen / fluorescence,<1 µM
CCN1c2ncc(CCOc3ccc(C(=O)O)c4c3CCN(S(=O)(=O)N(C)C)C4)cc2C(=O)N(C)c2cccnc21,fold resistance,,RT-V106A,,nucleotide incorporation / radiometric,1–10
O=C(CSc1nnnn1-c1ccc(C2CC2)cc1Cl)Nc1ccc(OCC(=O)N2CCC(C(=O)O)CC2)cc1Cl,IC50,,RT-K103 Y181C,,PicoGreen / fluorescence,<1 µM
CCc1cc(NCc2nc3c(C)ccc(C)c3o2)c(=O)[nH]c1C,fold resistance,,RT-Y181W,,nucleotide incorporation,6.3
O=C1Nc2ccccc2Oc2nnc(Cl)cc21,inhibition,330 µM,,,ELISA,22%
COc1ccc2c(c1)CN(c1nn3c(-c4cccs4)nnc3c3ccccc13)CC2,IC90,,,IIIB,RT activity / fluorescence,75.2 µM
CCN1c2ncc(CCOc3ccc(CC(=O)O)c4c3CCCC4)cc2C(=O)N(C)c2ccc(Cl)nc21,fold resistance,,RT-Y188L,,nucleotide incorporation / radiometric,1–10
CCN1c2ncc(CCOc3ccc(-c4ccc(CC(=O)O)cc4F)cc3C)cc2C(=O)N(C)c2cccnc21,IC50,,RT-K103N Y181C,IIIB,nucleotide incorporation / radiometric,<0.05 µM
O=c1cc(Cc2ccccc2)nc(SCCCCO)[nH]1,Ki,,RT-Y188L,,,207 µM
Cc1ccc(-n2nnnc2SCC(=O)Nc2ccc(-c3ccc(CC(=O)O)cc3)cc2Cl)c(Cl)c1,IC50,,RT-K103 Y181C,,PicoGreen / fluorescence,<1 µM
Cc1nnc2c3ccccc3c(N3CCc4cccnc4C3)nn12,IC90,,,IIIB,RT activity / fluorescence,8.37 µM
CC(C)(C#Cc1ccc(NC(=O)CSc2nnnn2-c2ccc3ncccc3c2Cl)c(Cl)c1)C(=O)O,IC50,,,WT,PicoGreen / fluorescence,<1 µM
CCN1c2ncc(CCOc3ccc(-c4ncc[nH]4)cc3C)cc2C(=O)N(C)c2cccnc21,IC50,,RT-K103N Y181C,IIIB,nucleotide incorporation / radiometric,<0.05 µM
CC(C)(C)c1ccc(-n2nnnc2SCC(=O)Nc2ccc(C(=O)NCc3ccco3)cc2Cl)c(Cl)c1,IC50,,,WT,PicoGreen / fluorescence,<1 µM
Cc1cc(-c2ccc[n+]([O-])c2)ccc1OCCc1cnc2c(c1)C(=O)Nc1c(C)ccnc1N2C1CC1,IC50,,RT-K103N Y181C,IIIB,nucleotide incorporation / radiometric,0.05–0.1 µM
CC(C)c1cc(Cl)c(-n2nnnc2SCC(=O)Nc2ccc(-c3ccc(CC(=O)O)cc3)cc2Cl)c(C(F)(F)F)c1,IC50,,RT-K103 Y181C,,PicoGreen / fluorescence,<1 µM
CCN1c2ncc(CCOc3ccc4cc(C(=O)NN)ccc4c3)cc2C(=O)N(C)c2cccnc21,fold resistance,,RT-Y188L,,nucleotide incorporation / radiometric,>10
CC(C)(C#Cc1ccc(NC(=O)CSc2nnnn2-c2cc(C(F)(F)F)cc(C3CC3)c2Cl)c(Cl)c1)C(=O)O,IC50,,RT-K103 Y181C,,PicoGreen / fluorescence,<1 µM
FC(F)(F)c1cccc2c1CCN(c1nn3c(C4CC4)nnc3c3ccccc13)C2,IC50,,,KER2008,RT activity / fluorescence,22 µM
O=C(O)Cc1ccc(-c2ccc(NC(=O)CSc3nnnn3-c3ccc4ncsc4c3Cl)c(Cl)c2)cc1,IC50,,,WT,PicoGreen / fluorescence,<1 µM
CCN1c2ncc(CCOc3ccc(-c4cc(C(=O)O)on4)cc3C)cc2C(=O)N(C)c2cccnc21,IC50,,RT-K103N Y181C,IIIB,nucleotide incorporation / radiometric,<0.05 µM
Nc1cc2c(cc1F)CN(c1nn3c(C4CC4)nnc3c3ccccc13)CC2,IC90,,,KER2008,RT activity / fluorescence,2.25 µM
CCN1c2ncc(CCOc3ccc(C(=O)O)c4c3CCCC4)cc2C(=O)N(C)c2ccc(F)nc21,fold resistance,,RT-Y188L,,nucleotide incorporation / radiometric,1–10
CCN1c2ncc(CCOc3ccc(-c4cc(C)nc(C)c4)cc3C)cc2C(=O)N(C)c2cccnc21,IC50,,RT-K103N Y181C,IIIB,nucleotide incorporation / radiometric,<0.05 µM
Cc1c(Cc2ccccc2)nc(SCCCCO)[nH]c1=O,Ki,,RT-V106A,,,96 µM
CCN1c2ncc(CCOc3ccc(CC(C)C(=O)O)c4ccccc34)cc2C(=O)N(C)c2ccc(Cl)nc21,fold resistance,,RT-K103N Y181C,,nucleotide incorporation / radiometric,1–10
CC(C)(C)c1ccc(-n2nnnc2SCC(=O)Nc2ccc(-c3ccc(OCCN4CCC(C(=O)O)CC4)cc3)cc2Cl)c(Cl)c1,IC50,,,WT,PicoGreen / fluorescence,<1 µM
Cc1c(Cc2ccccc2)nc(NCCCCN)[nH]c1=O,Ki,,RT-V179D,,,98 µM
CCN1c2ncc(CCOc3ccc(-c4ccc(C(=O)O)cc4)cc3F)cc2C(=O)N(C)c2cccnc21,IC50,,,IIIB,nucleotide incorporation / radiometric,<0.05 µM
Cc1nnc2c3ccccc3c(N3CCc4cc(O)c(O)cc4C3)nn12,IC90,,,IIIB,RT activity / fluorescence,2.86 µM
CCN1C(=O)c2ccnnc2Oc2ccc(C)cc21,inhibition,33 µM,,,ELISA,16%
O=[N+]([O-])c1ccc2c(c1)CN(c1nn3c(C4CC4)nnc3c3ccccc13)CC2,IC50,,,KER2008,RT activity / fluorescence,6.22 µM
CC(C)(C)c1ccc(-n2nnnc2SCC(=O)Nc2ccc(C#Cc3ccccc3)cc2Cl)c(Cl)c1,IC50,,,WT,PicoGreen / fluorescence,<1 µM
CCCCCN1C(=O)c2ccnnc2Oc2ccc(C)cc21,inhibition,330 µM,,,ELISA,35%
Cc1cc(-c2ccc(CC(=O)O)cc2)ccc1OCCc1cnc2c(c1)C(=O)N(C)c1cccnc1N2,IC50,,,IIIB,nucleotide incorporation / radiometric,<0.05 µM
O=C(CSc1nnnn1-c1ccc(C2CC2)cc1Cl)Nc1ccc(C#CC2(CN3CCC(O)CC3)CC2)cc1Cl,IC50,,RT-K103 Y181C,,PicoGreen / fluorescence,<1 µM
FC(F)(F)c1ccc2c(c1)CN(c1nn3c(C4CC4)nnc3c3ccccc13)CC2,IC50,,,IIIB,RT activity / fluorescence,1.82 µM
CC(CC(=O)O)NC(=O)c1ccc(NC(=O)CSc2nnnn2-c2ccc(C(C)(C)C)cc2Cl)c(Cl)c1,IC50,,,WT,PicoGreen / fluorescence,<1 µM
COc1ccc2c(c1)N(CCCCl)C(=O)c1ccnnc1O2,inhibition,330 µM,,,ELISA,32%
CC(C)(C)c1ccc(-n2nnnc2SCC(=O)Nc2ccc(-c3ccc(OCC(=O)O)c(F)c3)cc2Cl)c(Cl)c1,IC50,,RT-K103 Y181C,,PicoGreen / fluorescence,<1 µM
CCN1c2ncc(CCOc3ccc(C(=O)O)c4c3CCN(C(=O)OC)C4)cc2C(=O)N(C)c2cccnc21,fold resistance,,RT-K103N Y181C,,nucleotide incorporation / radiometric,1–10